{"source": "patent US7214497", "biological_target": "human VESPR (Viral Encoded Semaphorin Protein Receptor), native, on human cells, human, O60486 35-1568", "test": "flow cytometry, 5 ug/mL A39R/Fc on U937 cells (Human Monocyte-Type Cell)", "data": [{"substance": "Ectromelia Semaphorin A39R/immunoglobulin fusion protein (A39R/Fc)", "values": [{"measurement": "result", "value": "binds"}]}]}
